Measured values taken from PMC6906086.
For at least one entry, the source does not settle the construct or the ends of the probe. At least one verdict was read from the data and is not stated in words by the source.

Molecular target: Lsr2 (Mycobacterium tuberculosis H37Rv) (UniProt P9WIP7)
Assay: EMSA
Conditions: shift above 1.9 uM; recombinant protein

Sequence	binding result
GTCTTCCAATTGTCCTTCGG / CCGAAGGACAATTGGAAGA [rv0248c site]	binds
TGTGGCGATTTATCGTGCCG (double strand) [rv1306 site]	binds
CTACCACATTAATCGGCATC (double strand) [rv1669 site]	binds
